A mixed list of measured activities; the numbers were collected in NIAID ChemDB.

All rows: growth or infection tests; organism: Mycobacterium avium; measure: MIC

Conditions beyond the fields shown may differ between rows.

{"structure": "Cc1ccc2c(=O)n(-c3cccc(F)c3)c(=O)oc2c1", "strain or isolate": "CNCTC MY330/88", "value": "32 µM"}
{"structure": "Fc1ccc(-n2c(=S)oc3ccc(F)cc3c2=S)cc1", "strain or isolate": "MY330/88", "setting": "14 d", "value": "16 µM"}
{"structure": "CCOC(=O)c1ccc(-n2c(=O)oc3ccc(Br)cc3c2=O)cc1", "strain or isolate": "CNCTC MY330/88", "value": "32 µM"}
{"structure": "CCCOc1cccc(NC(=O)OCCN(C)C)c1", "strain or isolate": "MY330/88", "value": "500 µM"}
{"structure": "COc1ccc(-n2c(=O)oc3ccc(Cl)cc3c2=O)cc1", "strain or isolate": "CNCTC MY330/88", "value": "16 µM"}
{"structure": "O=c1nc2c(ncn2Cc2ccccc2)c(C#Cc2ccccc2)n1Cc1ccccc1", "cells": "VERO", "value": ">12.5 µg/mL"}
{"structure": "O=c1oc2ccc(Br)cc2c(=S)n1-c1ccc(Cl)cc1", "strain or isolate": "MY330/88", "setting": "21 d", "value": "32 µM"}
{"structure": "COc1ccc(-n2c(=O)oc3ccc([N+](=O)[O-])cc3c2=O)cc1", "strain or isolate": "CNCTC MY330/88", "value": "1000 µM"}
{"structure": "CCCCCCCCCCOc1cccc(NC(=O)OCCN2CCOCC2)c1", "strain or isolate": "MY330/88", "value": "16 µM"}
{"structure": "Cc1ccc(-n2c(=S)oc3ccc(Br)cc3c2=S)cc1", "strain or isolate": "MY330/88", "setting": "14 d", "value": "16 µM"}
{"structure": "Cc1cc(-c2cc3c(cc2F)c(=O)c(C(=O)O)cn3C2CC2)cc(C)n1", "cells": "Human monocyte-derived macrophages", "read by": "agar", "value": "1 µg/mL"}
{"structure": "CCCCOc1ccc(NC(=O)OCC[NH+]2CCCC2)cc1", "strain or isolate": "MY330/88", "value": "250 µM"}
{"structure": "O=c1oc2ccc(Br)cc2c(=S)n1-c1cccc(F)c1", "strain or isolate": "MY330/88", "setting": "14 d", "value": "16 µM"}
{"structure": "CCOc1ccccc1NC(=O)OCCN1CCCCC1", "strain or isolate": "MY330/88", "value": ">1000 µM"}
{"structure": "O=c1oc2ccc(F)cc2c(=S)n1-c1ccc(Cl)c(Cl)c1", "strain or isolate": "MY330/88", "setting": "14 d", "value": "8 µM"}
{"structure": "CCCCCCCCOc1ccc(NC(=O)OCCN2CCCCC2)cc1", "strain or isolate": "MY330/88", "value": "16 µM"}
{"structure": "O=c1oc2ccc(F)cc2c(=S)n1-c1cccc(F)c1", "strain or isolate": "MY330/88", "setting": "14 d", "value": "16 µM"}
{"structure": "O=c1oc2ccc([N+](=O)[O-])cc2c(=O)n1-c1ccc(F)cc1", "strain or isolate": "CNCTC MY330/88", "value": "500 µM"}
{"structure": "CCCCCCCCOc1cccc(NC(=O)OCCN2CCOCC2)c1", "strain or isolate": "MY330/88", "value": "32 µM"}

2 of the rows above, restated:

{"structure": "O=c1oc2ccc(Br)cc2c(=S)n1-c1ccc(Cl)cc1", "strain or isolate": "MY330/88", "setting": "21 d", "value": "32 µM"}
{"structure": "O=c1oc2ccc(Br)cc2c(=S)n1-c1cccc(F)c1", "strain or isolate": "MY330/88", "setting": "14 d", "value": "16 µM"}